One molecule from patent publication US20100003217A1, “Compounds and Pharmaceutical Compositions for the Treatment of Viral Infections” (priority 2008, published 2010) can be followed below.

In series [1] the test system is wild-type HCV replicon (GS4.1 cells). The conditions noted are these: GS4.1 (wild-type), EC50 reference. As to the method:
(§1) 1. […] Huh-7 cells were seeded into column 1 of each plate at a similar density.
(§2) 2. […] Eight additional 3-fold serial dilutions of each compound were prepared from the 2× stock in assay medium. Final drug concentrations ranged from 100 to 0.015 μM.
(§3) 3. […] This setup was run in duplicate in each 96-well plate.
(§4) 4. Cells were incubated with inhibitors for three days at 37° C./5% CO2.
(§5) 1. After three days of drug treatment, media was removed from the plates via gentle tapping and the cells were fixed to the plates with 100 μL/well of 1:1 acetone:methanol.
(§6) 2. After one minute of incubation at room temperature, plates were washed three times with 100 μL/well of ELISA wash solution and then blocked with 150 μL/well of 10% FBS-TNE.
(§7) 3. After a one hour incubation at room temperature, plates were washed three times with 100 μL/well of ELISA wash solution, and then 100 μL/well of mouse anti-hepatitis C […] mAb (1 mg/mL stock diluted 1:1,500 in 10% FBS-TNE) was added.
(§8) 4. Following 2 hours of incubation at 37° C., plates were washed three times with 100 μL/well of ELISA wash solution, and then 100 μL/well of HRP-goat anti-mouse antibody (diluted 1:4,000 in 10% FBS-TNE) was added.
4. […]
(§9) 6. The absorbance was measured at 490 nm on a Victor^3 V 1420 multilabel counter (Perkin Elmer). The percent inhibition of HCV replicon replication was calculated for each drug using an average of the duplicate wells.

In series [2] the test system is S282T HCV replicon (184R-D2 cells). The conditions noted are these: 184R-D2 (S282T); EC50 in resistant line divided by EC50 in wild-type cells. On the procedure: as §1, §2, §3, §4, §5, §6, §7, §8
4. […]
as §9

In series [3] the test system is S282T HCV replicon (184R-A cells). The conditions noted are these: 184R-A (S282T); EC50 in resistant line divided by EC50 in wild-type cells. As to the method: 3. The 184R-A cell line was derived by culturing wild-type replicon cells in the presence of 1 to 5 μM of Compound 1 for >100 days.
as §1, §2, §3, §4, §5, §6, §7
4. […]
as §9

For the molecule `NC(=O)c1ncn([C@@H]2O[C@H](CO)[C@@H](O)[C@H]2O)n1` [RBV, ribavirin, reference compound], the “Fold shift from wild-type” value in series [1] is on record as 1 fold; in series [2] it was 0.45 fold; in series [3], 0.32 fold.
